Measured values taken from publication PMC5127577, “Biochemical Characterization of Glutamate Racemase—A New Candidate Drug Target against Burkholderia cenocepacia Infections” (PLoS ONE, 2016).

Experiments:
BcGR = experiment: Effect of compounds on BcGR oligomeric state (size exclusion chromatography, cross-linking, BN-PAGE); set-up: species or system Burkholderia cenocepacia J2315; settings: for oligomeric state of BcGR: incubated with inhibitor in the absence of substrate; for molecular species of additional elution peak: with substrate D-Glu and inhibitor, gel filtration
BSA and lysozyme = experiment: Size exclusion chromatography of control proteins with compounds (unspecific cross-linking check); settings: 0.1 mM compound, with or without 10 mM D-Glu

Row | Substance | oligomeric state of BcGR (BcGR) | molecular species of additional elution peak (BcGR) | oligomeric state of control proteins (BSA and lysozyme)
1 | bis(2,4-bis(trichloromethyl)-1,3,5-triazapentadienato)-zinc(II) complex [(1)] | entirely in monomeric form | approximately 70 kDa | eluted as monomers
2 | tris(2,4-bis(trichloromethyl)-1,3,5-triazapentadienate)-Mn(III) complex [(2)] | entirely in monomeric form | approximately 70 kDa | eluted as monomers
